Data: US20080045592A1, “Method of inhibiting growth and proliferation of listeria monocytogenes using levulinate” (Utah State University, priority 2006, published 2008)

Assay: Consumer sensory panel, overall liking of turkey breast roll and bologna
Settings: scale of 1 to 9 (9=strongly like)

CC(=O)CCC(=O)[O-].[Na+] [sodium levulinate]
Mean score for overall liking (bologna, 1% additive, 112 consumers): 6.0
Mean score for overall liking (bologna, 2% additive, 112 consumers): 6.0
Mean score for overall liking (turkey breast roll, 2% additive, 132 consumers): 6.6
Mean score for overall liking (turkey breast roll, 3% additive, 132 consumers): 6.6
